Pooled drug test results. Numbers come from NIAID ChemDB, via PubChem.

Common to all: tests on isolated targets; species: HIV-1; target: RNase H; read-out: IC50

ICn: concentration for n% inhibition.

structure,strain,mutations,method,result
COC(=O)c1cc(=O)c(O)c(OC)cc1C,-,-,RNase H / fluorescence,14.7 µM
C/C(COc1ccc2c(c1O)C(=O)c1ccccc1C2=O)=N\NC(N)=O,-,-,RNase H,>100 µM
O=C(Nc1sc2c(c1C(=O)Nc1ccccn1)CCCCC2)c1ccccc1F,-,-,RNase H / fluorescence,21.89 µM
O=C(NCc1ccc(F)cc1)C1C(=O)N(O)C(=O)c2ccccc21,-,-,RNase H / radiometric,0.36 µM
CCCCCC(=O)Oc1ccc(O)c2c1C(=O)c1ccccc1C2=O,-,-,-,>100 µM
Cc1ccc(Cn2cccc2/C=C/C(=O)CC(=O)C(=O)O)c(C)c1,-,N474A,substrate cleavage / fluorescence,>100 µM
O=C(Nc1sc2c(c1C(=O)Nc1ccccn1)CCCCC2)c1ccccc1Cl,-,-,RNase H / fluorescence,23.9 µM
O=C1Cc2ccc(-c3ccco3)cc2C(=O)N1O,-,-,RNase H / substrate cleavage / fluorescence,0.65 µM
C#CC(/C=C/C/C=C/C=C/C=C/CC#CC(C#CC/C=C/C=C/C=C/CC(C#C)OC(C)=O)OC(C)=O)OC(C)=O,-,-,radiometric,>100 µM
COCOCC1=C2[C@H](CO[C@@H]3O[C@@H](CO)[C@@H](O)[C@H](O)[C@@H]3OCOC)C[C@@H](C)[C@]3(C[C@@H](c4ccoc4)OC3=O)[C@H]2CCC1,-,-,RNase H / luminescence,>100 µM
Nc1nc2c(ncn2[C@@H]2O[C@H](COP(=O)(O)O[C@H]3[C@@H](F)[C@H](n4cnc5c(NCc6ccc7ccccc7c6)ncnc54)O[C@@H]3CO)[C@@H](O)[C@H]2O)c(=O)[nH]1,-,-,RNase H,20 µM
CC(=O)COc1ccc2c(c1OCC(C)=O)C(=O)c1ccccc1C2=O,-,-,RNase H,>100 µM
Nc1nc2c(ncn2[C@@H]2O[C@H](COCO[C@H]3[C@@H](O)[C@H](n4cnc5c(=O)[nH]c(N)nc54)O[C@@H]3CO)[C@@H](O)[C@H]2O)c(=O)[nH]1,-,-,RNase H,20 µM
Cc1cc(O)c2c(c1)C(=O)c1cc(OCC(=O)c3ccc(Cl)cc3)cc(O)c1C2=O,-,-,RNase H,91 µM
C=C1CCC[C@H]2[C@](C)(CC3=C(O)C(=O)C=C(OC)C3=O)[C@@H](C)CC[C@]12C,-,-,RT activity,5.4 µg/mL
C#CCOc1ccc(OC(C)=O)c2c1C(=O)c1ccccc1C2=O,-,-,-,>100 µM
Nc1nc2c(ncn2[C@@H]2O[C@H](COP(=O)(O)O[C@H]3[C@@H](O)[C@H](n4cnc5c(=O)[nH]c(N)nc54)O[C@@H]3CO)[C@@H](O)[C@H]2O)c(=O)[nH]1,-,-,RNase H,15 µM
CC(C)(O)[C@H]1CC[C@@](C)(O[C@H]2O[C@@H](CO)[C@H](O)[C@@H](O)[C@@H]2O)[C@H](O)C1,-,-,FRET,>20 µM
O=C1c2ccccc2C(=O)c2c(O)ccc(O)c21,-,-,-,>100 µM
COc1c(/C=C/C(=O)c2ccc(F)cc2)ccc2ccccc12,-,-,RNase H / substrate cleavage,23 µM
C[C@H](O)CC[C@@]1(O)[C@@H](C)C[C@H](O[C@H]2O[C@@H](CO)[C@H](O)[C@@H](O)[C@@H]2O)CC1(C)C,-,-,FRET,>20 µM
Cc1cc(O)c2c(c1)C(=O)c1cc(OCC(=O)c3ccc(Br)cc3)cc(O)c1C2=O,-,-,RNase H,29 µM
CC(C)=CC[C@H]1C[C@@]23C[C@@H](CC=C(C)C)C(C)(C)[C@@](CC=C(C)C)(C(=O)C(C(=O)c4ccc(O)c(O)c4)=C2OC1(C)C)C3=O,-,-,RNase H / fluorescence,29 µM
O=c1oc(-c2cccc(O)c2)nc2sc3c(c12)CCCCC3,-,-,RNase H / fluorescence,33.9 µM
CC(C)OC(=O)c1cc(NC(=S)OC(C)C)ccc1Cl,-,-,-,>300 µM
Oc1cc(O)c2c(c1)O[C@H](c1cc(O)c(O)c(O)c1)[C@H](O)C2,-,-,FRET,>20 µM
COc1c(/C=C/C(=O)c2ccc(-c3ccccc3)cc2)ccc2ccccc12,-,-,RNase H / substrate cleavage,6 µM
O=C(NCc1ccc(F)cc1)C1C(=O)N(O)C(=O)c2ccccc21,-,-,RT activity / RNase H / radiometric,0.36 µM
Cn1c(=O)c2c(nc3n2CC(O)CN3c2ccc(O)cc2)n(C)c1=O,-,-,RNase H / gel,111 µM
O=C(Cc1nc(=O)n(O)c2ncccc12)NCc1ccccc1,-,-,radiometric,0.032 µM
Cc1ccc(Cl)cc1Nc1nc(C(F)(F)F)ccc1C(=O)NN1CCN(c2cccc(Cl)c2)CC1,-,A502F,RNase H / absorbance,47.7 µM
COc1cc(/C=C/CO)cc(OC)c1O[C@@H]1O[C@H](CO)[C@@H](O)[C@H](O)[C@H]1O,-,-,FRET,>20 µM
Nc1nc2c(ncn2[C@@H]2O[C@H](COCO[C@@H]3[C@H](O)[C@@H](CO)O[C@H]3n3cnc4c(=O)[nH]c(N)nc43)[C@@H](O)[C@H]2O)c(=O)[nH]1,-,-,RNase H,5 µM
COCOC[C@@]12[C@H](O)C[C@@H](C)[C@]3(C[C@@H](c4ccoc4)OC3=O)[C@H]1CCC(=O)[C@]21CO1,-,-,RNase H / fluorescence,>100 µM
Cc1nc2sc3c(c2c(=O)o1)CCC3,-,-,RNase H / fluorescence,1 µM
C/C(COc1ccc2c(c1O)C(=O)c1ccccc1C2=O)=N\NC(=O)c1ccncc1,-,-,RNase H,>100 µM
Nc1sc2c(c1C(=O)Nc1ccccn1)CCCCC2,-,-,RNase H / fluorescence,20.1 µM
CC(C)=CCC/C(C)=C/CC/C(C)=C/CC/C(C)=C/CC/C(C)=C/CC/C(C)=C/Cc1cc(O)ccc1O,-,-,nucleotide incorporation,>200 µM
C/C(COc1ccc2c(c1O)C(=O)c1ccccc1C2=O)=N\O,-,-,RNase H,>100 µM
O=C(/C=C/c1cccn1Cc1ccccc1Cl)CC(=O)C(=O)O,-,-,substrate cleavage / fluorescence,19.2 µM
Nc1sc2c(c1C(=O)Nc1ccccn1)CCCCC2,-,-,RNase H / fluorescence,20.1 µM
COc1c(/C=C/C(=O)c2ccc(Cl)cc2)ccc2ccccc12,-,-,RNase H / substrate cleavage,76 µM
CCOC(=O)C(=O)CC(=O)/C=C/c1cccn1Cc1ccccc1Cl,-,-,RNase H / fluorescence,8.06 µM
O=C(NCc1ccc(F)cc1)C1C(=O)N(O)C(=O)c2ccccc21,-,-,-,0.36 µM
CCOC(=O)C(=O)CC(=O)/C=C/c1cccn1Cc1ccc(C)cc1C,-,R448A,substrate cleavage / fluorescence,10 µM
COC(=O)c1c(Br)c(OC)c2c(c1-c1c3c(c(OC)c(Br)c1C(=O)OC)OCO3)OCO2,IIIB,-,-,0.016 µM
CCOC(=O)C(=O)CC(=O)/C=C/c1cc(-c2ccccc2)cn1Cc1ccc(F)cc1,-,Y501A,substrate cleavage / fluorescence,>100 µM
Cc1cc(O)c(O)c(O)c(=O)c1,-,-,RNase H / fluorescence,1.3 µM
CC(=O)Oc1ccc(O)c2c1C(=O)c1ccccc1C2=O,-,-,-,>100 µM
O=C(CCc1ccc(Cl)cc1)Nc1sc2c(c1C(=O)Nc1ccccn1)CCCCC2,-,-,RNase H / fluorescence,9.9 µM

A second listing of 5 rows from above:

structure	strain	mutations	method	result
Cc1nc2sc3c(c2c(=O)o1)CCC3	-	-	RNase H / fluorescence	1 µM
COC(=O)c1c(Br)c(OC)c2c(c1-c1c3c(c(OC)c(Br)c1C(=O)OC)OCO3)OCO2	IIIB	-	-	0.016 µM
Nc1nc2c(ncn2[C@@H]2O[C@H](COCO[C@@H]3[C@H](O)[C@@H](CO)O[C@H]3n3cnc4c(=O)[nH]c(N)nc43)[C@@H](O)[C@H]2O)c(=O)[nH]1	-	-	RNase H	5 µM
Cc1ccc(Cn2cccc2/C=C/C(=O)CC(=O)C(=O)O)c(C)c1	-	N474A	substrate cleavage / fluorescence	>100 µM
Cn1c(=O)c2c(nc3n2CC(O)CN3c2ccc(O)cc2)n(C)c1=O	-	-	RNase H / gel	111 µM

An empty or dashed field is not shown. Neighbouring rows are from separate reports.